Drawing on US10233206B2, “D-fagomine for the control of inflammatory processes related to an overactivation of the humoral immune response” (priority 2013, dated 2019), this text covers pH for one compound.

The structures appear in SMILES notation.

The series in a line: pH of organ culture supernatant.

Turning to `OC[C@H]1NCC[C@@H](O)[C@@H]1O` (stereo in doubt) [D-fagomine, (2R, 3R, 4R)-2-hydroxymethylpiperidine-3,4-diol], the pH (E. coli + D-fagomine 50 μg/ml) amounted to 7.65, the pH (E. coli + D-fagomine 500 μg/ml) is 7.59 and the pH (E. coli + D-fagomine 5000 μg/ml) worked out at 7.65.
